For this test, the target named is HIV-1 Env (Human immunodeficiency virus type 1, UniProt Q71014). Kind of test: β-galactosidase α-complementation cell-cell fusion assay, HIV-1 Env. As to conditions: read-out: IC50 (μM), cell-cell fusion assay, wild type Env; S2C3; 92UG037.8 HIV-1 Env wild type.

For the molecule `Nc1c2c([n+](CCCCCCCCCC[n+]3c4c(c(N)c5ccccc53)CCC4)c3ccccc13)CCC2` [Compound S2C3], the IC50 was found to be 4.4 µM.

Broadly, the IC50 is the concentration that inhibits the measured activity by half.

Source of the values: patent publication US12064425B2, “Compositions and methods for targeting a viral infection” (priority 2018, dated 2024).
